Compound potency records, mixed from different reports. Data source: NIAID ChemDB in PubChem.

All rows: whole-cell or culture tests; agent: HIV-1; read by: p24; read-out: EC50

a–b is a range or a potency band.

structure	cell line	mutations	strain	value
CCCCCCCC/C=C\CCCCCCCOCCOP(=O)(O)CO[C@H](CO)Cn1cnc2c(N)ncnc21	MT-2	RT	LAI	0.008 µM
O=C1Nc2ccc(Cl)c(O)c2[C@@](C#CC2CC2)(C(F)(F)F)N1	MT-4	RT-K103N		<0.028 µM
C[C@H](Cc1ccc(OC(=O)CN(C)C)c(OC(=O)CN(C)C)c1)[C@@H](C)Cc1ccc(OC(=O)CN(C)C)c(OC(=O)CN(C)C)c1	H9		AZT-resistant RTMF	12 µM
O=C(O)CCC(=O)NCCCC[C@H](NC(=O)OCc1ccccc1)C(=O)OCc1ccccc1	C8166		IIIB	>100 µM
Cc1cn([C@H]2C[C@H](F)[C@@H](CO)O2)c(=O)[nH]c1=O	H9		IIIB	0.003 µM
CCS(=O)(=O)N(C)c1nc(C(=O)NCc2ccc(F)cc2C(=O)NC)c(O)c2ncccc12	MT-4			<5 µM
NCCCC[C@H](NC(=O)OCc1ccccc1)C(=O)OCc1ccccc1	C8166		IIIB	>200 µM
CCN1c2nc(C(F)(F)F)ccc2NC(=O)c2cc(CCOc3cc[n+]([O-])c4ccccc34)cnc21	C8166		IIIB	0.0016 µM
CN(C[C@@H](CCN1CCC2(CC1)CS(=O)c1ccccc12)c1cccc(Cl)c1)S(=O)(=O)c1ccccc1	PBMC		YU2	<12.5 µM
COC(=O)[C@H](C)NP(=O)(OC[C@@H]1C=C[C@H](n2cc(C)c(=O)[nH]c2=O)O1)Oc1cc(Cl)ccc1Cl	PBMC		IIIB	0.001 µM
C=C1CN(S(=O)(=O)c2ccc(C)cc2)CCCN(CCC)CCCN(S(=O)(=O)c2ccc(C)cc2)C1	MT-4		NL4-3	2.39 µM
O=C1c2c(O)c3n(c2CCN1Cc1ccc(F)cc1)CCN(Cc1ccc(F)cc1)C3=O	MT-4			<10 µM
COc1ccc(C(Nc2ncnc3c2ncn3[C@@H]2O[C@H](CO[Si](C)(C)C(C)(C)C)C3(OS(=O)(=O)C=C3N)[C@H]2O[Si](C)(C)C(C)(C)C)(c2ccccc2)c2ccccc2)cc1	MT-4		IIIB	>100 µg/mL
C=C1CN(S(=O)(=O)c2ccc(C)cc2)CCCN(Cc2ccccn2)CCCN(S(=O)(=O)c2ccc(C)cc2)C1	MT-4		NL4-3	>75 µM
Cc1cc(C)cc(S(=O)(=O)c2c(C(=O)NCC(N)=O)[nH]c3ccc(Cl)cc23)c1	MT-4			<0.06 µM
C=C1CN(S(=O)(=O)c2ccc(C)cc2)CCCN(C(=O)OCC)CCCN(S(=O)(=O)c2ccc(C)cc2)C1	MT-4		NL4-3	27.2 µM
CC(C)Nc1cnccc1N1CCN(C(=O)c2cc3cc(F)ccc3[nH]2)CC1	PBL			0.01–0.1 µM
O=c1[nH]cc(F)c(=O)[nH]1	PBMC		JEW	>0.5 µM
C=CC(C)(/C=C\c1ccc(O)cc1)c1ccc(O)cc1.NC(=O)NO	PBMC		6366	0.00065 µM
Cc1ccc(-c2ccc3c(c2)C=C(C(=O)Nc2ccc(C[N+](C)(C)C4CCOCC4)cc2)CCC3)cc1	PBMC		Du301 CLADE C	<1 µM
CCNC(=O)c1cc(F)ccc1CNC(=O)c1nc(N2CCCCS2(=O)=O)c2cccnc2c1O	MT-4			<5 µM
C=C1CN(S(=O)(=O)c2ccc(C)cc2)CCCN(C(C)CC)CCCN(S(=O)(=O)c2ccc(C)cc2)C1	MT-4		NL4-3	3.52 µM
CSCC[C@H](NC(=O)[C@H](CO)N(Cc1ccccc1)C(=O)[C@H](Cc1ccccc1)NC(=O)OCc1ccccc1)C(=O)NC(C)(C)C	CEM + CEM-SS		IIIB	0.31 µM
CC(=O)O[C@H]1[C@H](n2cc(C)c(=O)[nH]c2=O)O[C@H](COC(=O)c2ccccc2)C12OS(=O)(=O)C=C2N	MT-4		IIIB	>100 µg/mL
NC(=O)c1cc(F)ccc1CNC(=O)c1nc(N2CCCCS2(=O)=O)c2cccnc2c1O	MT-4			<5 µM
O=C(NCc1ccc(O)c(O)c1)c1ccc2ccc(C(=O)O)c(O)c2n1	CEM		NL4-3	0.3 µM
COC(=O)CC(O)(CC(=O)O)C(=O)NCCCC[C@H](NC(=O)OCc1ccccc1)C(=O)N[C@@H](CCCCNC(=O)C(O)(CC(=O)O)CC(=O)OC)C(=O)OCc1ccccc1	C8166		IIIB	25 µM
CCN1c2ncc(CCc3ccncc3)cc2C(=O)N(C)c2ccc(Cl)nc21	C8166		IIIB	0.009 µM
CSCC[C@H](NC(=O)[C@H](CCO)N(Cc1ccccc1)C(=O)[C@H](CC(C)C)NC(=O)OCc1ccccc1)C(=O)NC(C)(C)C	CEM + CEM-SS		IIIB	0.295 µM
COC(=O)CC(O)(CC(=O)O)C(=O)NCCCC[C@H](NC(=O)OCc1ccccc1)C(=O)OCc1ccccc1	C8166		IIIB	>100 µM
Nc1nc(NC2CC2)c2ncn([C@H]3C=C[C@@H](CO)C3)c2n1	PBMC		IIIB	0.63 µM
CS(=O)c1ccc(-c2nc(-c3ccc(F)cc3)c(-c3ccncc3)[nH]2)cc1	Jurkat cells		BaL	>1 µM
C=C(C)[C@@H]1CC[C@]2(COC(=O)c3cccnc3)CC[C@]3(C)[C@H](CC[C@@H]4[C@@]5(C)CC[C@H](OC(=O)c6cccnc6)C(C)(C)[C@@H]5CC[C@]43C)[C@@H]12	MT-4		EVK	0.02 µg/mL
COC(=O)[C@H](C)NP(=O)(OC[C@@H]1C=C[C@H](n2cc(C)c(=O)[nH]c2=O)O1)Oc1ccc(Br)cc1Cl	PBMC		IIIB	0.001 µM
O=C(O)/C=C/c1ccc(O)c(O)c1	CEM		N1T	~0.5 µg/mL
O=C1Nc2ccc(Cl)c(O)c2[C@@](C#Cc2ccccc2)(C(F)(F)F)N1	MT-4	RT-K103N		<0.03 µM
CC(C)=CCOc1cc(NC(=S)c2ccoc2C)ccc1Cl	CEM + CEM-SS		RF	0.02 µM
COC(=O)C(C)NP(=O)(OC[C@@H]1C=C[C@H](n2cc(C)c(=O)[nH]c2=O)O1)Oc1ccc(Br)cc1	PBMC		IIIB	<0.001 µM
CNC(=O)c1ccccc1CNC(=O)c1nc(N2CCCCS2(=O)=O)c2cccnc2c1O	MT-4			<5 µM
O=C1Nc2ccc(Cl)c3c2[C@](C(F)(F)F)(C=C(c2cccnc2)O3)N1	MT-4	RT-K103N		<0.076 µM
CC(=O)N1CCC(C(=O)N(CCCN2CCC(Cc3ccc(C(N)=O)cc3)CC2)c2ccc(C)c(Cl)c2)CC1	PBMC		R5-06 Clinical isolate	0.01347 µM
C=CCn1c(=O)c(C)cn([C@@H]2O[C@H](CO[Si](C)(C)C(C)(C)C)C3(OS(=O)(=O)C=C3N)[C@H]2O)c1=O	MT-4		IIIB	>8 µg/mL
CCCc1cc(=O)oc2c3c(c4c(c12)OC(C)(C)C=C4)O[C@H](C)C[C@@H]3O	MT-4		090 L697661 resistant	0.185 µM
CCO[C@@H]1Cc2cc(C(F)(F)F)ccc2C1N1CCN(C2(C)CCN(C(=O)c3c(C)ncnc3C)CC2)C[C@@H]1C	PBMC		WPS-1	0.0012 µM
Nc1nccc2c1ncn2[C@@H]1O[C@H](CO)[C@@H](O)[C@H]1O	PBMC		18190 unpaired	0.127 µM
COC(=O)C(C)NP(=O)(OC[C@@H]1C=C[C@H](n2cc(C)c(=O)[nH]c2=O)O1)Oc1cccc(N(C)C)c1	PBMC		IIIB	0.025 µM
NC(=O)c1[nH]c2ccc(Cl)cc2c1S(=O)(=O)c1ccccc1	MT-4			<0.001 µM
CSCC[C@H](NC(=O)[C@H](CCO)N(Cc1ccccc1)C(=O)[C@H](Cc1ccccc1)NC(=O)OC1c2ccccc2-c2ccccc21)C(=O)NC(C)(C)C	CEM + CEM-SS		IIIB	0.118 µM
C=C1CN(S(=O)(=O)c2ccc(C)cc2)CCCN(Cc2ccncc2)CCCN(S(=O)(=O)c2ccc(C)cc2)C1	MT-4		NL4-3	6.13 µM
O=C(O)/C=C(/CC(=O)O)C(=O)NCCCC[C@H](NC(=O)OCc1ccccc1)C(=O)OCc1ccccc1	C8166		IIIB	40 µM
C=C1CN(S(=O)(=O)c2ccc(C)cc2)CCCN(C(C)=O)CCCN(S(=O)(=O)c2ccc(C)cc2)C1	MT-4		NL4-3	>75 µM
CCNc1cccnc1N1CCN(C(=O)c2cc3cc(C(=O)OCc4ccccc4)ccc3[nH]2)CC1	PBL			0.1 µM
CCCCCCCCNCC(O)CCCCCCCCCn1c(=O)c2c(ncn2C)n(C)c1=O	PBL		JR-CSF	1 µM
COc1c(Cl)ccc2c1[C@@](C#Cc1ccccc1)(C(F)(F)F)NC(=O)N2	MT-4	RT-K103N		<0.113 µM
C=C1CN(S(=O)(=O)c2ccc(C)cc2)CCCN(CCC(C)C)CCCN(S(=O)(=O)c2ccc(C)cc2)C1	MT-4		NL4-3	0.77 µM
Nc1nccc2c1ncn2[C@@H]1C=C(CO)[C@@H](O)[C@H]1O	PBMC		18453 unpaired	0.0034 µM

The last 6 rows once more:

structure	cell line	mutations	strain	value
C=C1CN(S(=O)(=O)c2ccc(C)cc2)CCCN(C(C)=O)CCCN(S(=O)(=O)c2ccc(C)cc2)C1	MT-4		NL4-3	>75 µM
CCNc1cccnc1N1CCN(C(=O)c2cc3cc(C(=O)OCc4ccccc4)ccc3[nH]2)CC1	PBL			0.1 µM
CCCCCCCCNCC(O)CCCCCCCCCn1c(=O)c2c(ncn2C)n(C)c1=O	PBL		JR-CSF	1 µM
COc1c(Cl)ccc2c1[C@@](C#Cc1ccccc1)(C(F)(F)F)NC(=O)N2	MT-4	RT-K103N		<0.113 µM
C=C1CN(S(=O)(=O)c2ccc(C)cc2)CCCN(CCC(C)C)CCCN(S(=O)(=O)c2ccc(C)cc2)C1	MT-4		NL4-3	0.77 µM
Nc1nccc2c1ncn2[C@@H]1C=C(CO)[C@@H](O)[C@H]1O	PBMC		18453 unpaired	0.0034 µM

An empty or dashed field is not shown. Neighbouring rows are from separate reports. ECn is the concentration giving n% inhibition of infection, replication or growth.